Compound potency records, mixed from different reports. Data source: NIAID ChemDB in PubChem.

All rows: tests in culture; agent: Aspergillus flavus; endpoint: inhibition

An empty or dashed field is not shown. Inhibition is in % at the dose shown (toxicity tests: loss of growth or viability). Lines come from different laboratories, so protocols vary.

COc1ccc(C2=NN(c3ccccc3)C(c3ccc(SC)cc3)C2)cc1 ; strain: NCIM 594 ; method: broth dilution ; dose: 2000 µg/mL ; result: 48.37%
Nc1nc(/N=C/c2ccccn2)n[nH]1 ; method: agar diffusion / agar ; dose: 200 µg/mL ; result: 45%
CSc1ccc(C2CC(c3ccccc3)=NN2c2ccccc2)cc1 ; strain: NCIM 594 ; method: broth dilution ; dose: 2000 µg/mL ; result: 30.5%
COc1c(O)c(C=O)c2c(O)c(-c3c(C)c(=O)c4c(C(C)C)c(=O)c(=O)c(C=O)c-4c3=O)c(C)c(O)c2c1C(C)C ; strain: ATCC 96044 ; dose: 100 µg/mL ; result: 43.8%
CSc1ccc(C2CC(c3cccc(N)c3)=NN2c2ccccc2)cc1 ; strain: NCIM 594 ; method: broth dilution ; dose: 2000 µg/mL ; result: 24.97%
Nc1nc(/N=C/c2ccccn2)n[nH]1.Nc1nc(/N=C/c2ccccn2)n[nH]1.[O]=[V+2] ; method: agar diffusion / agar ; dose: 200 µg/mL ; result: 54%
Cc1c(-c2c(C)c(=O)c3c(C(C)C)c(=O)c(=O)c(C=O)c-3c2=O)c(O)c2c(C=O)c(O)c(O)c(C(C)C)c2c1O ; strain: ATCC 96044 ; dose: 100 µg/mL ; result: 71%
NS(=O)(=O)c1ccc(N=Cc2c[nH]c3ccccc23)cc1 ; dose: 200 µg/mL ; result: 55%
CSc1ccc(C2CC(c3cccc(Br)c3)=NN2c2ccccc2)cc1 ; strain: NCIM 594 ; method: broth dilution ; dose: 2000 µg/mL ; result: 91.36%
Nc1nc(/N=C/c2c([O-])ccc3ccccc23)n[nH]1.Nc1nc(/N=C/c2c([O-])ccc3ccccc23)n[nH]1.[O]=[V+2] ; method: agar diffusion / agar ; dose: 200 µg/mL ; result: 70%
NC(=S)NN=Cc1cccs1 ; strain: MTC 00040 ; method: broth dilution ; dose: 500 µg/mL ; result: 100%
CSc1ccc(C2CC(c3ccccc3Cl)=NN2c2ccccc2)cc1 ; strain: NCIM 594 ; method: broth dilution ; dose: 2000 µg/mL ; result: 88.22%
O=S(=O)(Nc1ncccn1)c1ccc(N=Cc2c[nH]c3ccccc23)cc1 ; dose: 200 µg/mL ; result: 25%
COc1c(O)cc2c(c1C(C)C)C(=O)C(C)=C(C1=C(C)C(=O)c3c(cc(O)c(OC)c3C(C)C)C1=O)C2=O ; strain: ATCC 96044 ; dose: 100 µg/mL ; result: 15.2%
O=S(=O)(Nc1nccs1)c1ccc(N=Cc2c[nH]c3ccccc23)cc1 ; dose: 200 µg/mL ; result: 30%
Nc1nc(/N=C/c2ccc[n-]2)n[nH]1.Nc1nc(/N=C/c2ccc[n-]2)n[nH]1.[O]=[V+2] ; method: agar diffusion / agar ; dose: 200 µg/mL ; result: 65%
Cc1cc(NS(=O)(=O)c2ccc(N=Cc3c[nH]c4ccccc34)cc2)no1 ; dose: 200 µg/mL ; result: 45%
CSc1ccc(C2CC(c3ccc(Br)cc3)=NN2c2ccccc2)cc1 ; strain: NCIM 594 ; method: broth dilution ; dose: 2000 µg/mL ; result: 28.2%
C/C(=N\c1n[nH]c(N)n1)c1ccccn1.C/C(=N\c1n[nH]c(N)n1)c1ccccn1.[O]=[V+2] ; method: agar diffusion / agar ; dose: 200 µg/mL ; result: 63%

Repeating the final 2 entries:

SMILES,strain,method,dose,result
CSc1ccc(C2CC(c3ccc(Br)cc3)=NN2c2ccccc2)cc1,NCIM 594,broth dilution,2000 µg/mL,28.2%
C/C(=N\c1n[nH]c(N)n1)c1ccccn1.C/C(=N\c1n[nH]c(N)n1)c1ccccn1.[O]=[V+2],,agar diffusion / agar,200 µg/mL,63%